Compound potency records, mixed from different reports. Data source: NIAID ChemDB in PubChem.

All rows: tests in culture

ECn is the concentration giving n% inhibition of infection, replication or growth. Fold resistance has wild type as its base. Rows are shuffled and stem from different studies. An empty or dashed field is not shown. A number after MIC or MFC names an inhibition level or a share of isolates. Percent inhibition refers to the dose given; in toxicity tests it is the harm to the cells. Two numbers with a dash give a range or band. Zones are inhibition diameters on agar.

SMILES	species	strain or isolate	mutations	cell line	read by	read-out	tested at	value
COc1cc(-c2ccc(N=Nc3ccc4c(S(=O)(=O)O)cc(S(=O)(=O)O)c(N)c4c3O)c(OC)c2)ccc1N=Nc1ccc2c(S(=O)(=O)O)cc(S(=O)(=O)O)c(N)c2c1O	Adenovirus	TYPE 3		Human embryonic lung cells	cytopathic effect	inhibition	5 µg/mL	0%
Cn1cnc2c(CNC(=O)c3c4n(c(=O)n3-c3ccc(OC5CC5)cc3)CCN(C(=O)c3ccc(Br)c(Cl)c3)C4)cccc21	Hepatitis B virus			HepG2.117	PCR	EC50		0.1–0.5 µM
CCC(CC)[C@H](NC(C)=O)[C@@H]1C[C@@H](C(=O)O)C[C@H]1N=C(N)N	Influenza A virus	Influenza A/Shandong/09/93 (H3N2)		MDCK		EC50		0.18 µM
O=C(O)c1cc(S(=O)(=O)[O-])ccc1O	Herpes simplex virus			Human amnion AV3 cells	cytopathic effect	inhibition	50 µg/mL	20%
O=C(Nc1cc(C(F)(F)F)cc(C(F)(F)F)c1)NN(Cc1cccc(O)c1)C(=O)Nc1cc(C(F)(F)F)cc(C(F)(F)F)c1	Escherichia coli	ES142				MIC		150 µM
O=C(NN1C(=O)CSC1C1C(c2ccccc2)=Nc2ccccc21)N1c2ccccc2C=Cc2ccccc21	Aspergillus terreus	MTCC-1782			agar diffusion	zone	500 µg/mL	6 mm
CCC(CC)[C@H](NC(C)=O)[C@@H]1[C@H](O)[C@@H](C(=O)O)C[C@H]1N=C(N)N	Influenza A virus	Influenza A/Washington/05/96 (H3N2)		MDCK		EC50		0.02 µM
CCC(C)CC(C)CCCCCCCCC(=O)N[C@H]1C[C@@H](O)[C@H](NCCN)NC(=O)[C@@H]2[C@@H](O)CCN2C(=O)[C@H]([C@H](O)CCN)NC(=O)[C@H]([C@H](O)[C@@H](O)c2ccc(O)cc2)NC(=O)[C@@H]2C[C@@H](O)CN2C(=O)[C@H]([C@@H](C)O)NC1=O	Cryptococcus gattii	CBS 11545			broth dilution	MIC		16 µg/mL
COc1cccc2c1C(=O)c1cnn(C)c1C2=O	Cryptosporidium parvum					inhibition	25 µM	<10%
O=C(CC(=O)Nc1cc(C(F)(F)F)cc(C(F)(F)F)c1)Nc1ccc(C(F)(F)F)cc1	Klebsiella pneumoniae	KL21				MIC		>300 µM
O=C(N[C@@H](C(=O)N1CCC[C@H]1c1ncc(-c2ccc(-c3ccc(-c4cnc([C@@H]5CCCN5C(=O)[C@H](NC(=O)C5CC5)c5ccccc5)s4)cc3)cc2)s1)c1ccccc1)C1CC1	Hepatitis C virus	genotype 2a	Y93N	Huh7.5	luciferase / reporter gene	fold resistance		207
O=S(=O)([O-])c1ccc(O)c2ccccc12	Adenovirus	TYPE 3		Human embryonic lung cells	cytopathic effect	inhibition	10 µg/mL	10%
O=C(NCc1ccccc1)c1c2n(c(=O)n1-c1ccc(N3CCO[C@@H](C(F)(F)F)C3)cc1)CCN(C(=O)c1ccc(Br)c(Cl)c1)C2	Hepatitis B virus			HepG2.117	PCR	EC50		0.1–0.5 µM
Brc1ccc(Cn2ccc3nc(-c4ccccc4)nc-3c2)cc1	Bovine viral diarrhea virus	NADL (TYPE 1)		MDBK	ELISA	EC50		0.33 µM
CCCC(CCC)C(NC(C)=O)C1CC(C(=O)O)CC1N=C(N)N	Influenza A virus	H1N1 A/NWS/33		MDCK		EC50		23 µM
CCCCCCCCCCCCOC(=O)[C@]1(O)C[C@@H](O)[C@@H](O)[C@H](OC(=O)/C=C/c2ccc(O)c(O)c2)C1	Aspergillus nomius	SLV 549			absorbance	MIC50		1250 µg/mL
COc1ccc(-c2snc(SC)c2C#N)cc1	Encephalomyocarditis virus	Encephalomyocarditis virus		L929	plaque count	EC50		>10 µM
O=C1c2cn[nH]c2C(=O)c2c(O)ccc(O)c21	Cryptosporidium parvum					EC50		10–25 µM
O=C(NNC(=O)Nc1cc(C(F)(F)F)cc(C(F)(F)F)c1)Nc1ccc(C(F)(F)F)cc1	Escherichia coli	ES142				MIC		>300 µM
Cc1cc(-c2ccc(N=Nc3c(S(=O)(=O)O)cc4cc(S(=O)(=O)O)cc(N)c4c3O)c(C)c2)ccc1N=Nc1c(S(=O)(=O)O)cc2cc(S(=O)(=O)O)cc(N)c2c1O	Adenovirus	TYPE 3		Human embryonic lung cells	cytopathic effect	inhibition	10 µg/mL	0%
CSc1nsc(-c2ccc3ccccc3c2)c1C#N	Encephalomyocarditis virus	Encephalomyocarditis virus		L929	plaque count	EC50		>20 µM
O=S(=O)([O-])c1ccc2c(NS(=O)(=O)c3ccccc3)cc(S(=O)(=O)[O-])cc2c1	Rhinovirus			Human embryonic lung cells	cytopathic effect	inhibition	10 µg/mL	0%
COc1ccc(-n2c(C(=O)NCc3ccncc3)c3n(c2=O)CCN(C(=O)c2ccc(Cl)c(Cl)c2)C3)cc1	Hepatitis B virus			HepG2.117	PCR	EC50		>0.5 µM
O=C(NN=CC1C(c2ccccc2)=Nc2ccccc21)N1c2ccccc2C=Cc2ccccc21	Aspergillus terreus	MTCC-1782			agar diffusion	zone	750 µg/mL	6 mm
Cn1cc(C(=O)NCc2ccc(Cl)cc2)c(=O)c2cc(CN3CCOCC3)ccc21	Varicella zoster virus	KL varicella isolate		HFF	plaque count	EC50		0.1 µM
CSc1nsc(-c2ccc(O)cc2)c1C#N	Measles virus	Edmonston		HEP-2	plaque count	EC50		>2 µM
CC1CCC(C(=O)N(c2cc(C#CC(C)(C)C)sc2C(=O)O)C2CCC(O)CC2)CC1	Hepatitis C virus	Con1 (gt 1b)	M423T	Huh7	luciferase	fold resistance		49.6
COc1c2c(c(O)c3ccccc13)C(=O)c1cnn(C)c1C2=O	Cryptosporidium parvum					inhibition	100 µM	93%
CCC(CC)[C@H](NC(C)=O)[C@@H]1[C@H](O)[C@@H](C(=O)O)C[C@H]1N=C(N)N	Influenza A virus	Influenza A/Virginia/2/88R (H3N2)		MDCK		EC50		<0.01 µM
C=CCc1ccc(O)c(OC)c1	Candida albicans	2323			turbidity	MIC90		480 µg/mL
Cn1ncc2c1C(=O)c1c(O)c3c(c(O)c1C2=O)CCCC3	Cryptosporidium parvum					inhibition	10 µM	<10%
CCC(O)CN(NC(=O)Nc1cc(C(F)(F)F)cc(C(F)(F)F)c1)C(=O)Nc1ccc(C(F)(F)F)cc1	Escherichia coli	ES142				MIC		>300 µM
O=S(=O)(O)c1ccc2ccc(S(=O)(=O)O)cc2c1	Rhinovirus			Human amnion AV3 cells	cytopathic effect	inhibition	5 µg/mL	10%
CSc1nsc(-c2cc[n+](C)cc2)c1C#N	Encephalomyocarditis virus	Encephalomyocarditis virus		L929	plaque count	EC50		>1000 µM
O=C(NN1C(=O)CSC1C1C(c2ccccc2)=Nc2ccc(Cl)cc21)N1c2ccccc2C=Cc2ccccc21	Aspergillus oryzae	MTCC-3567			agar diffusion	zone	1000 µg/mL	14 mm
C[C@H](NC(=O)c1c2n(c(=O)n1-c1ccc(OCC(F)(F)F)cc1)CCN(C(=O)c1ccc(Br)c(Cl)c1)C2)c1ccc(OCC#N)cc1F	Hepatitis B virus			HepG2.117	PCR	EC50		0.1–0.5 µM

For reference, 2 entries again:

SMILES	species	strain or isolate	mutations	cell line	read by	read-out	tested at	value
O=C(NN1C(=O)CSC1C1C(c2ccccc2)=Nc2ccc(Cl)cc21)N1c2ccccc2C=Cc2ccccc21	Aspergillus oryzae	MTCC-3567			agar diffusion	zone	1000 µg/mL	14 mm
CCC(CC)[C@H](NC(C)=O)[C@@H]1[C@H](O)[C@@H](C(=O)O)C[C@H]1N=C(N)N	Influenza A virus	Influenza A/Virginia/2/88R (H3N2)		MDCK		EC50		<0.01 µM